The results in this text go back to PubChem BioAssay AID710 (SRMLSC, 2007).

The entries are a selection whose mix differs from that of the whole data set. Active and inactive are the calls of the source.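 How the source made its calls: active means growth inhibition above about 50% at one test dose (limit read from the data); inactive means the rest.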

The test is described as follows: growth inhibitors of wild-type E. coli, primary screen, strain BW25113, expanded library, OD600 (AID 710).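 Further: growth measured after 20 h incubation at 37 °C.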 To be noted: OD600 absorbance, at 100 µM, stronger effect = higher value.
For `COc1ccccc1OP(C)(=O)Nc1ccc(C)c(C)c1` (configuration not stated), the growth inhibition is inactive: -5%.
The figure for `Cc1nc2ccc3ccccc3c2o1.O=[N+]([O-])c1cc([N+](=O)[O-])c(O)c([N+](=O)[O-])c1` is inactive: 8%; for `CN(C)CCOC(=O)C(O)(c1ccccc1)C1CCCC1` (configuration not stated) it is inactive: -2%; for `COc1ccc(OP(C)(=O)Nc2ccccn2)cc1` (configuration not stated) it is inactive: 1%.
For the molecule `CCc1ccc(OP(C)(=O)O)cc1`, the growth inhibition was inactive: -3%.
As for `CP(=O)(Nc1ccccn1)Oc1ccccc1` (configuration not stated), the growth inhibition was inactive: 6%.
Turning to `COc1ccccc1OP(C)(=O)Nc1ccc(C)cc1C` (configuration not stated), the growth inhibition is inactive: -3%.
The figure for `Cc1c(NP(C)(=O)Oc2ccc(C(C)C)cc2)c(=O)n(-c2ccccc2)n1C` (configuration not stated) is inactive: 2%.
The figure for `CP(=O)(Oc1ccccc1)N1CCOC1=O` (configuration not stated) is inactive: 5%; for `CCN(CC)CC(O)COC(=O)C(O)(c1ccccc1)C1CCCCC1` (configuration not stated) it is inactive: 7%.
The figure for `CP(=O)(Nc1ccc(Cl)cc1)Oc1ccc(F)cc1` (configuration not stated) is inactive: 16%; for `CC(C)(C)c1ccc(OP(C)(=O)O)cc1` it is inactive: 2%; for `CP(=O)(OC12CC3CC(CC(C3)C1)C2)OC12CC3CC(CC(C3)C1)C2` it is inactive: -11%.
As for `CN(C)CCOC(=O)C(O)(c1ccccc1)C1CCCCC1` (configuration not stated), the growth inhibition was inactive: 4%.
The figure for `COc1ccc(OP(C)(=O)Nc2cccc(Br)c2)cc1` (configuration not stated) is inactive: 2%; for `CCOP(C)(=S)SCC(=O)NC(C)(CC)C(=O)O` (configuration not stated) it is inactive: -6%; for `Cc1ccccc1NP(C)(=O)Nc1ccccc1C` it is inactive: 9%.
Take `CP(=O)(Nc1ccc2c(c1)OCCO2)Oc1ccccc1` (configuration not stated): the growth inhibition is inactive: 5%.
As for `CP(=O)(Nc1ccccc1F)Oc1ccccc1` (configuration not stated), the growth inhibition was inactive: 2%.
The figure for `CP(=O)(Nc1ccccc1)Oc1ccc(F)cc1` (configuration not stated) is inactive: 2%.
The figure for `Cc1cc(C)cc(OP(C)(=O)Nc2ccc(C)cc2C)c1` (configuration not stated) is inactive: 4%; for `Cc1cc(C)cc(OP(C)(=O)Nc2ccccn2)c1` (configuration not stated) it is inactive: -3%; for `Cc1ccc(C)c(NP(C)(=O)Oc2ccccc2)c1` (configuration not stated) it is inactive: 7%.
The figure for `Cc1nc2ccc3ccccc3c2s1.O=[N+]([O-])c1cc([N+](=O)[O-])c(O)c([N+](=O)[O-])c1` is inactive: 10%.
Turning to `COc1ccccc1OP(C)(=O)Nc1c(C)cccc1C` (configuration not stated), the growth inhibition is inactive: 3%.
Take `CP(=S)(Nn1cnnc1)Oc1ccccc1` (configuration not stated): the growth inhibition is inactive: 3%.
With `CP(=O)(NC(=O)Nc1ccccc1)Oc1ccccc1` (configuration not stated), the growth inhibition was inactive: 1%.
The figure for `CP(=O)(Nc1ccccn1)Oc1ccc(Cl)cc1` (configuration not stated) is inactive: 3%.
Turning to `CCOP(C)(=S)SCC(=O)NC(C)C(=O)O` (configuration not stated), the growth inhibition was inactive: -2%.
The figure for `COc1ccc(OP(C)(=O)Nc2cccc(F)c2)cc1` (configuration not stated) is inactive: 3%.
The figure for `COc1ccccc1OP(C)(=O)Nc1ccc(C)cc1` (configuration not stated) is inactive: 1%; for `Cc1ccc(NP(C)(=O)Oc2ccccc2)c(C)c1` (configuration not stated) it is inactive: 1%.
